From paper PMC4867592, “Targeting multiple response regulators of Mycobacterium tuberculosis augments the host immune response to infection” (Scientific Reports, 2016)

Key:
[1] = target: RegX3 WT (phosphorylated) (UniProt P9WGL9); experiment: EMSA; settings: recombinant protein, residues 1-227, label: 5' Cy5 (EMSA), 5' biotin (SPR), probe letters rebuilt from the primers and the genome
RegX3 R202A = target: T1, RegX3 R202A (UniProt P9WGL9); experiment: SPR; settings: recombinant protein; residues 1-227; label: 5' Cy5 (EMSA), 5' biotin (SPR); probe letters rebuilt from the primers and the genome
T1 sequence (looked up): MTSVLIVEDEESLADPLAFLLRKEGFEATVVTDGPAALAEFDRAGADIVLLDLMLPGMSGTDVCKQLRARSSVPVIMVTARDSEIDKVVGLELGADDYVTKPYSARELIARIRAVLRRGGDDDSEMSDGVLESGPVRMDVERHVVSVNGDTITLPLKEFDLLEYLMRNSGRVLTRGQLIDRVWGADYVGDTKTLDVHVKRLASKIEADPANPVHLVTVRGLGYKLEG

[2] = target: RegX3 WT (phosphorylated) (UniProt P9WGL9); experiment: SPR; settings: recombinant protein; residues 1-227; label: 5' Cy5 (EMSA), 5' biotin (SPR); probe letters rebuilt from the primers and the genome

Measured: binding result

ACCGGCTTGGGACCGGCACCGCGGTACTGTGTGCGTTCGGCACCGCGCTGCACCCGCGGTTCGGGCCGGATTCGTCCGCGCGGCACCGCCGTTCGGGCGC (double strand) [ppK1 promoter fragment]
binds: [1] | RegX3 R202A | [2]

Construct, isoform or probe ends are uncertain for at least one entry. For part of these data: At least one verdict rests on a figure or table, not on a statement of the authors. For part of these data: Where a protein sequence is shown, tags need not be part of it.
